Test results published in patent US11447502B2, “Antibacterial agents: dual-targeted RNA polymerase inhibitors” (priority 2018, dated 2022).
≈ marks a conversion by molar mass, not a printed value.

Key:
Assay in all cases: microbe, parasite or virus in culture
Assay type in all cases: cell-based
[1] = system: rifampin-resistant M. tuberculosis 10545 (rpoB-S′531′L); details: Mycobacterium tuberculosis, read-out: antibacterial activity rifampin-resistant M. tuberculosis 10545 (rpoB-S′531′L) MIC
[2] = system: rifampin-resistant M. tuberculosis 4457 (rpoB-H′526′Y); details: Mycobacterium tuberculosis, read-out: antibacterial activity rifampin-resistant M. tuberculosis 4457 (rpoB-H′526′Y) MIC
[3] = system: rifampin-resistant M. tuberculosis 20626 (rpoB-H′526′D); details: Mycobacterium tuberculosis, read-out: antibacterial activity rifampin-resistant M. tuberculosis 20626 (rpoB-H′526′D) MIC

| SMILES | MIC [1] [µg/mL] | MIC [2] [µg/mL] | MIC [3] [µg/mL] |
| --- | --- | --- | --- |
| CO[C@H]1/C=C/O[C@@]2(C)Oc3c(C)c(O)c4c(O)c(c(/C=N/N5CCN(c6ccc(F)cc6NC(=O)C(Cc6ccccc6)NC(=O)c6ccccc6F)CC5)c(O)c4c3C2=O)NC(=O)/C(C)=C\C=C\[C@H](C)[C@H](O)[C@@H](C)[C@@H](O)[C@@H](C)[C@H](OC(C)=O)[C@@H]1C (stereo partly drawn) [IX-398, Rifamycin SV—(CHN)—IX-214 Conjugate] | 6.25 (≈ 5.26 µM) | 3.13 (≈ 2.64 µM) | 12.5 (≈ 10.5 µM) |
| [2H]C([2H])(c1ccccc1)C(NC(=O)c1ccccc1F)C(=O)Nc1cc(F)ccc1N1CCN(/N=C/c2c3c(O)c4c(O)c(C)c5c(c4c2O)C(=O)[C@@](C)(O/C=C/[C@H](OC)[C@@H](C)[C@@H](OC(C)=O)[C@H](C)[C@H](O)[C@H](C)[C@@H](O)[C@@H](C)/C=C/C=C(/C)C(=O)N3)O5)CC1 (stereo partly drawn) [IX-404a, Rifamycin SV—(CHN)—IX-370a Conjugate] | 6.25 (≈ 5.26 µM) | 3.13 (≈ 2.63 µM) | 25 (≈ 21 µM) |
| [2H]C([2H])(c1ccccc1)C(NC(=O)c1ccccc1F)C(=O)Nc1cc(F)ccc1N1CCN(C(=O)COc2cc3c(O)c4c(O)c(C)c5c(c24)C(=O)[C@@](C)(O/C=C/[C@H](OC)[C@@H](C)[C@@H](OC(C)=O)[C@H](C)[C@H](O)[C@H](C)[C@@H](O)[C@@H](C)/C=C/C=C(/C)C(=O)N3)O5)CC1 (stereo partly drawn) [IX-408a, Rifamycin B—IX-370a Conjugate] | 3.13 (≈ 2.6 µM) | 3.13 (≈ 2.6 µM) | 12.5 (≈ 10.4 µM) |
